{
  "source": "paper PMC11796224",
  "about": "“Merck Open Global Health Library in vitro screening against Schistosoma mansoni identified two new substances with antischistosomal activities for further development” (Parasites & Vectors, 2025)",
  "test_system": "adult S. mansoni couples",
  "experiment": "In vitro screening of OGHL compounds and analogues against adult S. mansoni couples (Giessen)",
  "type": "cell-based, Schistosoma mansoni",
  "conditions": "10 µM, scale 0-4 (3 = normal activity); tested form: Na salt",
  "note": "Some entries of the source have several records that differ or are many. The other results are left out here. There may be further records. Results that share an entry differ for a reason that is not stated; some may be repeats, others may stem from another dose, organism or construct than stated.",
  "data": [
    {"compound": "COc1ccc(CNc2nc(-c3ccc(C(=O)O)nc3)nc3sc4c(c23)CCCC4)cc1Cl", "values": [
      {"measurement": "Motility score after 24 h", "value": "< 2 and 1.9"}
    ]}
  ]
}
